PubChem BioAssay AID504761, Drosophila RNAi Screening Center | 2011
In all, the deposit lists about 22,000 reagents; this is an unselected part of those with a known target gene and a result. Of all reagents, 116 (0.52%) are marked active. 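Calls depend on retest data that are not deposited; infection was ranked per plate without normalising between plates; the unit of the infection score is not given.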 Entries without a mark were called inactive. The numbers tell different reagents against one gene apart. Not all columns of the deposit are shown. Not stated in the record: the amount of reagent, the time to read-out.

Assay: 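Insect host genes that dengue virus relies on to spread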 (primary screen)
Cell system: D.Mel-2 cells from Drosophila
Reagents: long dsRNA against Drosophila genes
Challenge: infection with dengue virus type 2; dose and infection time not stated
Read-out: 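Per well on two replicate plates, imaging gave the percent of cells positive for viral envelope protein, ranked by infection, and a nuclear count of cells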
Scale: infection score: higher = more virus-infected cells
Rule for the call: 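Very low infection ranking in both replicate wells (chance probability at most 0.065), then a retest showing infection dropped 1.5-fold or more at p below 0.05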
Meaning of the calls: active = confirmed: knock-down lowers infection; inactive = not picked or not confirmed

Gene,dsRNA no.,"infection score, replicate 1"
CG9673,1,16.9
Or47a,1,9.89
CG3402,1,10.5
RpLP2,1,4.55
RpLP2,2,3.3
CG7420,1,2.12
ATPsynbetaL,1,1.17
ATPsynbetaL,2,0.98
CG5946,1,2.82
Est-Q,1,5.43
Atg9,1,7.51
Fer1,1,7.07
Fer1,2,3
Fer1,3,6.41
CG13575,1,12.2
CG13575,2,4
kek1,1,25.4
CG14258,1,1.75
CG10435,1,5.03
CG10435,2,3.89
CG14106,1,0.96

Reformatted: 6 of the entries above.
CG13575 #2
- infection score, replicate 1: 4

kek1
- infection score, replicate 1: 25.4

CG14258
- infection score, replicate 1: 1.75

CG10435 #1
- infection score, replicate 1: 5.03

CG10435 #2
- infection score, replicate 1: 3.89

CG14106
- infection score, replicate 1: 0.96

The listing continues:
Gene,dsRNA no.,"infection score, replicate 1"
alpha-Spec,1,8.5
achi,1,5.17
achi,2,16.5
CG13558,1,5.22
CG13558,2,9.57
Gr36b,1,4.62
Gr36b,2,14.3
CG6576,1,0.85
CG6576,2,20.5
Acp98AB (retired record),1,3.35
Su(Tpl),1,1.17 (active)
Su(Tpl),2,2.58
fand,1,13.1
fand,2,3.45
LSm3,1,3.1
Galphaf,1,0.86
CG14777,1,1.24
CG18558,1,33.3
